Measured data: PubChem BioAssay AID1259414 (Drosophila RNAi Screening Center, 2018)
The deposit covers about 24,000 reagents; below is an unselected part of those that have a named target and a result. In the full data, about 1,210 (5%) are marked active. 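Inactive calls also include excluded dsRNAs with several or no targets, genes unexpressed in JW18, and well A1, regardless of score.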 A number with no mark means an inactive call. Reagents against one gene are numbered here. Names joined by + are all predicted targets of the reagent.

Test: 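Host factors increasing or decreasing Wolbachia levels in cultured fly cells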 (primary screen)
Cells: Drosophila JW18 cells infected with Wolbachia
Reagent: long dsRNA against Drosophila genes, 0.25 µg dsRNA per well of a 384-well plate
Timing: 5 days
Treatment: cells persistently infected with Wolbachia before knock-down; no added drug
Read-out: 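Imaged fluorescence in situ signal for Wolbachia 23S rRNA per DAPI-counted host cell, given as a robust z-score within each plate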
Scale: Wolbachia per cell robust z: higher = more Wolbachia per host cell than the plate typical
Active means: 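Hit when robust z is 1.5 or more, or -1.5 or less, in at least two of three replicates; excludes dsRNAs with several or no targets, genes not expressed in JW18 and well A1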

gene	reagent no.	Wolbachia per cell robust z, rep 1	Wolbachia per cell robust z, rep 2	Wolbachia per cell robust z, rep 3
abd-A	1	-0.148	-0.923	-0.197
abd-A	2	-0.934	-0.0376	-0.0134
abd-A	3	0.397	-0.893	0.673
sNPF	1	0.743	0.0889	0.696
CR41243 + CG40160	1	0.461	-0.834	-0.954
CG42507 + Trl	1	1.09	0.904	-2.4
RpS15Aa + RpS15Ab	1	2.88	2.21	3.88
Tom40	1	-1.38	-0.274	0.473
CG31021	1	-1.22	-0.585	-0.97
Hug	1	-1.19	1.3	-0.693
Hug	2	-0.158	-1.07	-0.511
Dis3l2	1	-0.726	-0.0381	-0.84
CG31142	1	0.00271	-0.337	0.222
CG31550	1	-2.85	0.632	0.362
CG31550	2	-0.122	0.157	-1.14
CG31550	3	0.124	-5.79	-0.165
EAChm	1	0.754	0.692	0.636
smog	1	-0.484	-1.27	-0.385
smog	2	0.729	0.279	0.496
smog	3	-0.309	-1.52	-0.505
Pp1-Y1	1	0.643	0.353	1.13
Pp1-Y1	2	1.11	1.39	-0.353
SmydA-3	1	-3.81	-1.44	-4.32
SmydA-3	2	0.798	0.396	1.22
SmydA-3	3	0.96	1.56	0.836
CG14667	1	0.977	-0.305	0.312
CG14667	2	0.711	-0.736	-0.413
Pop4	1	-3.62	0.491	1.36
Pop4	2	-0.0504	-0.93	-0.609
DZIP1	1	0.411	0.291	0.214
SmydA-9	1	-1.47	0.254	-1.28
Sox21a	1	-0.103	-0.338	0.526
Sox21a	2	1.01	1.67	0.898
hyx	1	0.691	0.905	-2.23
CG17140 + CG17139	1	-2.12	0.442	-1.27
CG17140 + CG17139	2	0.147	-1.84	-0.158
CG1513	1	1.54	-1.79	1.42
CG1513	2	0.517	0.517	0.523
CG1513	3	0.333	0.508	0.587
CG30065	1	-0.316	0.512	0.289
CG33223	1	-0.334	-0.696	-0.865
CG33223	2	-0.245	0.722	-0.48
Fad2	1	1.92	2.28	1.97
Fad2	2	-0.254	0.187	0.528
tx	1	0.969	-0.458	0.51
tx	2	-5.65	0.125	-1.2
CG32071	1	0.809	0.0563	0.115
CG32071	2	-0.163	-0.0949	-0.406

11 of these entries, set out differently:
| gene | reagent no. | Wolbachia per cell robust z, rep 1 | Wolbachia per cell robust z, rep 2 | Wolbachia per cell robust z, rep 3 |
| --- | --- | --- | --- | --- |
| CG31142 | 1 | 0.00271 | -0.337 | 0.222 |
| CG31550 | 1 | -2.85 | 0.632 | 0.362 |
| CG31550 | 2 | -0.122 | 0.157 | -1.14 |
| CG31550 | 3 | 0.124 | -5.79 | -0.165 |
| EAChm | 1 | 0.754 | 0.692 | 0.636 |
| smog | 1 | -0.484 | -1.27 | -0.385 |
| smog | 2 | 0.729 | 0.279 | 0.496 |
| smog | 3 | -0.309 | -1.52 | -0.505 |
| Pp1-Y1 | 1 | 0.643 | 0.353 | 1.13 |
| Pp1-Y1 | 2 | 1.11 | 1.39 | -0.353 |
| SmydA-3 | 1 | -3.81 | -1.44 | -4.32 |

Additional results:
gene	reagent no.	Wolbachia per cell robust z, rep 1	Wolbachia per cell robust z, rep 2	Wolbachia per cell robust z, rep 3
CG18131	1	-0.933	-1.56	-3.67
hoip	1	5.4 (active)	6.59	6.18
CG4116	1	-0.553	0.777	-0.855
CG4116	2	0.124	-0.569	0.119
CG7304	1	-0.137	-0.099	-0.276
CG7304	2	-0.0441	0.437	0.449
CG30116	1	-1.38	0.11	-0.0484
CG30116	2	-0.504	0.0107	-1.6
CG42489	1	0.674	-2.24	-0.328
l(3)80Fg	1	0.178	-0.0804	0.392
l(3)80Fg	2	1.19	-0.522	-0.595
l(3)80Fg	3	0.774	0.624	-0.674
eIF5B	1	0.893	-0.174	-0.125
eIF5B	2	0.16	-0.645	1.48
eIF5B	3	-0.743 (active)	-2.09	-1.59
CG11267	1	0.248	1.02	-0.949
TwdlR	1	-0.424	-0.833	-1.18
Polr3A	1	0.11	0.543	1.25
l(3)05822	1	0.0397 (active)	2.12	1.98
l(3)05822	2	0.275	0.915	0.88
Smox	1	0.604	1.01	0.605
wac	1	-0.0297	0.907	1.34
wac	2	0.554	0.301	-6.81
CG33290	1	-0.968	0.424	-0.115
CG33290	2	1.03	0.575	0.656
eIF3m	1	1.35 (active)	2.65	3.42
eIF3m	2	1.32	1.38	2.61
clumsy	1	0.415	-0.212	-0.517
FMRFaR	1	-0.18	-0.677	0.328
CG5555	1	-0.247	1.16	3.1
CG5326	1	0.914	1.21	0.901
CG5326	2	0.747	-2.36	0.537
CG5326	3	-0.279	0.952	0.276
sei	1	-6.12	0.268	-0.124
sei	2	0.408	0.7	-0.685
CG13047	1	-1.09	-0.356	0.0944
CG13047	2	-4.54	-0.514	-0.666
Ing3	1	-3.99	-8.78	0.31
Ing3	2	-0.508	1.46	0.512
